Test results taken from publication PMC8879444, “Neofunctionalization of Glycolytic Enzymes: An Evolutionary Route to Plant Parasitism in the Oomycete Phytophthora nicotianae” (Microorganisms, 2022).

Test system: Nc1ncnc2c1ncn2[C@@H]1O[C@H](COP(=O)(O)OP(=O)(O)OP(=O)(O)O)[C@@H](O)[C@H]1O
Assay: purified protein

Row | Substance | Km (pH 7.5, phosphate buffer, co-substrate glucose, pH 7.5) [µM] | Km (pH 8.5, phosphate buffer, co-substrate fructose, pH 8.5) [µM]
1 | GKII (PPTG_18927) (Phytophthora nicotianae P1569) | 500 ± 50 | –
2 | FKI (PPTG_18886) (Phytophthora nicotianae P1569) | – | 1000 ± 50
